{"source": "patent US6808877B2", "about": "(priority 2000, dated 2004)", "experiment": "general procedure: Fmoc solid-phase peptide synthesis", "conditions": "whole synthesis, scale of the general procedure 0.25 mmol", "data": [{"substance": "WKYMVM (Trp-Lys-Tyr-Met-Val-D-Met", "values": [{"measurement": "final purity (method not given)", "value": "greater than 90%"}]}]}
